In patent US20090053187A1 (priority 2005, published 2009):

Test system: Bacillus anthracis 71/12 (Tsenkovsky vaccine II)
Design: species or system outbred white mice
Conditions: mouse, in vivo

Substance: bovine serum albumin
- Death of animal on day 2: 2 and 1
- Death of animal on day 3: 1 and 2
- Death of animal on day 6: 1 and 2
- Number of perished/Number of infected: 5/5
- mortality: 100%

Where “and” joins values, the source holds several entries; their conditions need not be identical. Equal entries are not always repeated.
